Values from PubChem BioAssay AID624099 (ICCB-Longwood, 2012)

Assay: 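Knock-downs relieving repression by E2 of an HPV18 LCR luciferase reporter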 (primary screen)
Cell system: human C33A cervical carcinoma cells (HPV-negative) stably expressing BPV1 E2 and an HPV18 LCR luciferase reporter
Reagent: siRNA pool against human genes, 40 nM
Timing: 72 h
Measurement: 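HPV18 LCR reporter light per well, converted to plate-wise z-scores that exclude control wells, and averaged over triplicate plates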
Reading the numbers: mean z-score and z-score: higher = stronger reporter signal, weaker E2 silencing
Rule for the call: 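Mean z ≥ 2 together with z ≥ 2 in two or more of the three replicates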
Shown is an unselected part of about 21,000 deposited reagents. 497 of them (2.4%) count as active. 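Higher z means weaker E2 silencing; only reporter increases were scored, and knock-downs that hurt cell survival may mask genuine repressor factors.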 A number with no mark means an inactive call.

{"Target gene": "USP34 (ubiquitin specific peptidase 34)", "mean z-score": -1.44, "z-score, replicate A": -1.45, "z-score, replicate B": -1.59, "z-score, replicate C": -1.28}
{"Target gene": "SYT15 (synaptotagmin 15)", "mean z-score": 1.76, "z-score, replicate A": 2.02, "z-score, replicate B": 1.21, "z-score, replicate C": 2.07}
{"Target gene": "GGH (gamma-glutamyl hydrolase)", "mean z-score": 1.03, "z-score, replicate A": 1.16, "z-score, replicate B": 0.95, "z-score, replicate C": 0.98}
{"Target gene": "NEUROD4 (neuronal differentiation 4)", "mean z-score": -0.51, "z-score, replicate A": -0.18, "z-score, replicate B": -0.15, "z-score, replicate C": -1.21}
{"Target gene": "SLC26A4", "mean z-score": -0.45, "z-score, replicate A": -0.6, "z-score, replicate B": -0.56, "z-score, replicate C": -0.2}
{"Target gene": "SNTB2 (syntrophin beta 2)", "mean z-score": -0.48, "z-score, replicate A": -0.65, "z-score, replicate B": -0.32, "z-score, replicate C": -0.47}
{"Target gene": "STK33 (serine/threonine kinase 33)", "mean z-score": -0.76, "z-score, replicate A": -0.45, "z-score, replicate B": -1.1, "z-score, replicate C": -0.73}
{"Target gene": "B9D1 (B9 domain containing 1)", "mean z-score": -0.25, "z-score, replicate A": -0.45, "z-score, replicate B": -0.27, "z-score, replicate C": -0.01}
{"Target gene": "C3orf18 (chromosome 3 open reading frame 18)", "mean z-score": -0.64, "z-score, replicate A": -0.08, "z-score, replicate B": -0.7, "z-score, replicate C": -1.14}
{"Target gene": "LOC391707 (chromatin accessibility complex subunit 1 pseudogene)", "mean z-score": 0.22, "z-score, replicate A": 0.33, "z-score, replicate B": 0.17, "z-score, replicate C": 0.16}
{"Target gene": "ZMYND8 (zinc finger MYND-type containing 8)", "mean z-score": 1.52, "z-score, replicate A": 1.73, "z-score, replicate B": 1.46, "z-score, replicate C": 1.36}
{"Target gene": "AKAP8L (A-kinase anchoring protein 8 like)", "mean z-score": -0.27, "z-score, replicate A": -0.08, "z-score, replicate B": -0.42, "z-score, replicate C": -0.29}
{"Target gene": "LOC399898 (retired record)", "mean z-score": 0.44, "z-score, replicate A": 0.63, "z-score, replicate B": 0.38, "z-score, replicate C": 0.3}
{"Target gene": "ARMC10P1 (armadillo repeat containing 10 pseudogene 1)", "mean z-score": 0.75, "z-score, replicate A": 0.97, "z-score, replicate B": 0.84, "z-score, replicate C": 0.44}
{"Target gene": "NARF (nuclear prelamin A recognition factor)", "mean z-score": 0.29, "z-score, replicate A": 0.33, "z-score, replicate B": 0.31, "z-score, replicate C": 0.23}
{"Target gene": "NUDT19 (nudix hydrolase 19)", "mean z-score": 0.21, "z-score, replicate A": 0.18, "z-score, replicate B": 0.42, "z-score, replicate C": 0.03}
{"Target gene": "SLC16A8", "mean z-score": 1.39, "z-score, replicate A": 1.01, "z-score, replicate B": 1.47, "z-score, replicate C": 1.68}
{"Target gene": "RINT1 (RAD50 interactor 1)", "mean z-score": 0.81, "z-score, replicate A": 1.02, "z-score, replicate B": 0.52, "z-score, replicate C": 0.91}
{"Target gene": "CCAR1 (cell division cycle and apoptosis regulator 1)", "mean z-score": -0.96, "z-score, replicate A": -1.21, "z-score, replicate B": -1.25, "z-score, replicate C": -0.42}
{"Target gene": "GSPT2 (G1 to S phase transition 2)", "mean z-score": -1.03, "z-score, replicate A": -1.11, "z-score, replicate B": -1.37, "z-score, replicate C": -0.61}
{"Target gene": "XRCC4 (X-ray repair cross complementing 4)", "mean z-score": 0.43, "z-score, replicate A": 0, "z-score, replicate B": 0.54, "z-score, replicate C": 0.74}

Just “z-score, replicate B” (2 entries from above):
LOC399898 (retired record)	0.38
ARMC10P1 (armadillo repeat containing 10 pseudogene 1)	0.84
